Assay results: article PMC5472179 (Nature Communications, 2017)

How the values were obtained:
[1] = biological target: eVP30 110-272 Q203A (Ebola virus (Zaire), UniProt Q05323 110-272, Q203A)
[2] = biological target: eVP30 110-272 Q229A (Ebola virus (Zaire), UniProt Q05323 110-272, Q229A)
[3] = biological target: T1, eVP30 110-272 (Ebola virus (Zaire), UniProt Q05323 110-272)
T1 sequence: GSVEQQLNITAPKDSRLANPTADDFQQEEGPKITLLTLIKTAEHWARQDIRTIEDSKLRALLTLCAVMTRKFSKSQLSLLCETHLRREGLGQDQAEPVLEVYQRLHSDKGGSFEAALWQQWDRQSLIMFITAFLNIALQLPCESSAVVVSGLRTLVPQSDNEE

[4] = biological target: T2, eVP30_(110–272) (Ebola Zaire, UniProt Q05323 110-272); test: fluorescence polarisation
T2 sequence: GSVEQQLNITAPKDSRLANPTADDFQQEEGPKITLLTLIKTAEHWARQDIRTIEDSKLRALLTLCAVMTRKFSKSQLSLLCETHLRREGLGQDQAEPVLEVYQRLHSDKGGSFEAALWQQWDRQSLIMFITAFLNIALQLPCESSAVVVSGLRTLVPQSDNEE

B1: FITC-labeled eNP600-615 peptide (peptide)
peptide: RTPTVAPPAPVYRDHS
modifications: fluorescein isothiocyanate (FITC) conjugated; position not stated
binding result [1]: binds
binding result [2]: binds
binding result [3]: binds

B2: FITC-eVP30BP (peptide)
peptide: RTPTVAPPAPVYRDHS
modifications: conjugated to fluorescein isothiocyanate (FITC)
binding result [4]: binds

B3: eNP_(590–739) WT (domain or fragment)
chain: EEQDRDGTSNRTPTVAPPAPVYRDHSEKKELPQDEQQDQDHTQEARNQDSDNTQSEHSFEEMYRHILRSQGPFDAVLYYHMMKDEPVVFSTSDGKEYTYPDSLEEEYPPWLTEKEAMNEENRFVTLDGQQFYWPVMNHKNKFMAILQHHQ
binding result [4]: binds
